Laboratory results taken from the supplement of paper PMC9931576.
Human monoclonal antibodies against the spike receptor-binding domain (heavy:light variable regions). IC50 against pseudoviruses bearing the spike of naturally observed variants; lower = stronger; >10 µg/ml means not reached at the top dose. No active / inactive call. The stated detection limit is 0.0005 µg/ml; values near or below 0.001 µg/ml lie at the floor of the assay.

B1: BD56-557 (protein)
chain 1: QITLKESGPTLVKPTQTLTLTCTFSGFSLNTRGVCVGWIRQPPGKALEWLALICWDDDRRYSPSLKNRLTITKDTSKNHIVLTMTNMDPVDTAIYFCAYSPPDTSGWYGESIDYWGQGTLVTVSS
chain 2: SYELTQPPSVSVSPGQTARITCSGHAFPNQYAYWYQQKPGQAPVLVIYRDTERPSGIPGRFSGSSSGRTVTLTISGVQAEDEGDYYCQSADSSGVVFGGGTKLTVL
B2: DH1063 (protein)
chain 1: QVQLVESGGGVVQPGRSLRLSCAASGFSFNNYGFHWVRQAPGKGLEWLTSIWHDGSREFYADSVKGRFTISRDNPQNTMYLQMNSLRAEDTALYFCARDVAHCTTVGCHGNWFDTWGQGTLVTVSS
chain 2: EIVLTQSPATLSLSPGDRATLSCRSSQTVDIYVGWYQQKPGQPPRLLIYDASNRAPGVPARFSGSGSGTDFTLTISSLEPEDFAVYFCQQRKSWPPLTFGGGTKVEMK
B3: BD56-574 (protein)
chain 1: QVQLQESGPALVKPSQTLSLTCTVSRGSIISGGFYWSWIRQHSGKGLEWIGHINYSGTTYYNPSLKSRLNILVDTSKNQFSLNLSSVTAADTAVYYCARVESGAYPPWFDPWGQGILVTVSS
chain 2: SYVLTQPPSVSAAPGKTASMTCGGNNIGSKSVHWYQQKPGQAPALVIYYDSARPSGIPERFSGSNSGNTATLTISRVEAGDEADYYCQVWDSSGDHPVFGGGTKLTVL
B4: BD56-554 (protein)
chain 1: QITLKESGPTLVKPTQTLTLTCTFSGFSLTNSGEGVAWIRQPPGKALEWLALIYWDNDKRYSPSLKSRLTITRDTSKNQVVFRMTNMDPVDTATYYCAQTPGIDVMFESWGQGTLVTVSS
chain 2: QSALTQPASVSGSPGQSITISCTGTSTDLGSFNYVSWYLQHPGKAPKLMIYDVTNRPSGVSNRFSGSKSGNTASLTISGLQAQDEGDYYCSSYTTSSVVFGGGTKLTVL
B5: DH1130 (protein)
chain 1: EVQLVESGGDLVQPGGSLRLSCAASGFTFTTYAMTWVRQAPGKGLEWVSTISTTGGDTYYADSVKGRFTISRDNSRNTLNLQMNSLRAEDTAVYSCARHNELDHWGQGTLVIVSS
chain 2: EIVLTQSPDFQSVSPKEKVTITCRASQSIGSSLHWYQQKPDQSPKLLIKYASQSLSGVPSRFSGSGSGTDFTLTINSLEVEDGATYYCHQSSSFPRTFGQGTKVEIK
B6: BD56-561 (protein)
chain 1: QVQLVESGGGVVQPGRSLRLSCAASGFTFSPYGMHWVRQAPGKGLEWVAVIWSDGSNQYYADSVKGRFTISRDNSKNTLYLQLNRLRAEDTAVYFCAREDSFGYSHGDFYYYGLDVWGQGTTVTVSS
chain 2: QSVLTQPPSVSAAPGQKVTISCSGSTSNIGSNFVSWYQQLPGTPPKFLIFDNNKRPSGIPDRFSASKSATSATLAITGLQTGDEADYYCGTWDTRLSVWVFGGGTKLTVL
B7: BD56-586 (protein)
chain 1: VQLVESGGGLVQPGGSLRLSCAASGLPFSNDDMHWVRQVAGKGLEWVSGIGTTRDTYYADSVKGRFTISRDNAKNSLSLHMNSLRVEDTAMYYCARGNSYFDGSGYLFDLWGQGTLVTVSS
chain 2: DIQMTQSPSSLSAFVGDRVTIACRASQSIRRFLNWYQQKAGKAPKLLIYGASSLQNGVPTRFSGSGSGTDFTLTISSLQPEDFATYYCQQSYSMPPWTFGQGTKVEIK
B8: BD56-571 (protein)
chain 1: EVQLVESGGGLVQPGGSLRLSCAASGFTFSSYDMHWVRQVTGKGLEWVAVIGTAADTYYPDSVKGRFTISRENAKNSLYLQMNSLRAGDTGIYYCARGNFDSSGFYGYFDFWGQGALVSVSS
chain 2: DIQMTQSPSSLSASVGDRVAITCRASQRISSYLNWYQQKPGKAPKLLIYAASSLQSGVPSRFSGSGSGTDFTLTISSLQPEDFATYYCQQSYTMPPYTFGQGTKLEIK
B9: BD56-579 (protein)
chain 1: QVRLQESGPKVVKPSGTLSLTCTVSGGSVTDYYWSWIRQPPGKGLEWVGYLYYSGSTNYNPSLKSRVTISLDTSKNQFSLRLSSVTAADTAVYYCARDEPIGYCYGDSCGSAYDLWGQGTKVTVSS
chain 2: DIQMTQSPSTLSASVGDRVTITCRASQSISSWLAWYQQKPGKAPKLLIYKASSLQSGVPSRFSGSGSGTEFTLTISSLQPDDFATYHCQQYSSYSTFGQGTKVEIK
B10: BD56-564 (protein)
chain 1: QVQLVESGGGVVQPGRSLRLSCAASGFTFSTYAMHWVRQAPGKGLEWVAVISSDGSNKYYADSVKGRFTISRDNPKNTLFLQMNTLRAEDTSIYYCAREGGYCSGGDCYSGLGWFDPWGQGTLVTVSS
chain 2: DIQMTQSPSSLSASAGDRVTITCRASQSIISYLNWYQQKPGKAPKLLIHAASSLQSGVPSRFSGSGSGTDFTLTISSLQPEDFATYYCQQSYITPPAFGQGTRLEIK
B11: BD56-558 (protein)
chain 1: QLQLQESGPGLVKPSETLSLTCTVSGGSISRSSHYWGWIRQPPGKGLEWIGSIYYSRRSYYNPSLKSRVSISVDTSNNQFSLTLTSVTAADRAVYYCARRGGVSGWGGDDWYFDVWGRGTLVTVSS
chain 2: QSVLTQPPSVSGAPGQRVTISCTGSSSNIGTGYDVHWYQQLPGTAPKVLIYGNNNRPSGVPDRFSGSKSGTSASLAITGLQAEDEADYYCQSYDSSLSGWVFGGGTKLAVL
B12: BD56-566 (protein)
chain 1: QLQLQESGPGLVKPSETLSLTCTVSGGSISSSSYYWGWIRQPPGKGLDWIGSIYYSRKTYYNPSLKSRVTISVDTSKNQFSLTLTSVTAADRAVYYCARRGGVSGWGGDDWYFDLWGRGTLVTVSS
chain 2: QSVLTQPPSVSGAPGQRVTISCTGSSSNIGAGYDVHWYQLLPGRVPKVLIYGNNNRPSGVPDRFSGSKSGTSASLAIIGLQAEDEADYYCQSYDSSLSTWMFGGGTKLTVL

The binders below were run against SARS-CoV-2 Omicron BA.1 spike pseudovirus (assay: pseudovirus neutralization IC50; higher = weaker neutralization).
Experimental: (§1)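 Single-round VSV luciferase pseudovirus mixed with antibody dilutions for 1 h and put on Huh-7 cells for about a day; IC50 from the dose curve.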
In the case of B1, the “pseudovirus neutralization IC50” value is reported as > 10 µg/mL. In the case of B2, the “pseudovirus neutralization IC50” value is reported as > 10 µg/mL. With B3 the “pseudovirus neutralization IC50” value was 0.0729 µg/mL. For B4, the “pseudovirus neutralization IC50” value was 0.00979 µg/mL. With B5 the “pseudovirus neutralization IC50” value was > 10 µg/mL. B6 was tested, and the “pseudovirus neutralization IC50” value was 1.43 µg/mL. B7 was tested, and the “pseudovirus neutralization IC50” value was 6.07 µg/mL. With B8 the “pseudovirus neutralization IC50” value was > 10 µg/mL. In the case of B9, the “pseudovirus neutralization IC50” value is reported as 0.0354 µg/mL. For B10, the “pseudovirus neutralization IC50” value was 0.00344 µg/mL. With B11 the “pseudovirus neutralization IC50” value was > 10 µg/mL. B12 was tested, and the “pseudovirus neutralization IC50” value was 2.46 µg/mL.

These binders were tested against SARS-CoV-2 Omicron BA.2 spike pseudovirus in the same assay as above.
Experimental: as §1
In the case of B1, the “pseudovirus neutralization IC50” value is reported as > 10 µg/mL. For B2, the “pseudovirus neutralization IC50” value was > 10 µg/mL. In the case of B3, the “pseudovirus neutralization IC50” value is reported as 0.114 µg/mL. For B4, the “pseudovirus neutralization IC50” value was 0.000857 µg/mL. In the case of B5, the “pseudovirus neutralization IC50” value is reported as > 10 µg/mL. In the case of B6, the “pseudovirus neutralization IC50” value is reported as 1.24 µg/mL. With B7 the “pseudovirus neutralization IC50” value was 7.56 µg/mL. B8 was tested, and the “pseudovirus neutralization IC50” value was 5.27 µg/mL. For B9, the “pseudovirus neutralization IC50” value was 0.0254 µg/mL. With B10 the “pseudovirus neutralization IC50” value was 0.00176 µg/mL. In the case of B11, the “pseudovirus neutralization IC50” value is reported as 0.368 µg/mL. In the case of B12, the “pseudovirus neutralization IC50” value is reported as 0.332 µg/mL.

The binders below were run against SARS-CoV-2 Omicron BA.2.75 spike pseudovirus in the same assay as above.
Experimental: as §1
In the case of B1, the “pseudovirus neutralization IC50” value is reported as > 10 µg/mL. B2 was tested, and the “pseudovirus neutralization IC50” value was > 10 µg/mL. With B3 the “pseudovirus neutralization IC50” value was 0.1 µg/mL. In the case of B4, the “pseudovirus neutralization IC50” value is reported as 0.0128 µg/mL. B5 was tested, and the “pseudovirus neutralization IC50” value was > 10 µg/mL. In the case of B6, the “pseudovirus neutralization IC50” value is reported as 1.5 µg/mL. In the case of B7, the “pseudovirus neutralization IC50” value is reported as 2.83 µg/mL. For B8, the “pseudovirus neutralization IC50” value was > 10 µg/mL. With B9 the “pseudovirus neutralization IC50” value was 0.0326 µg/mL. For B10, the “pseudovirus neutralization IC50” value was 0.00169 µg/mL. For B11, the “pseudovirus neutralization IC50” value was > 10 µg/mL. In the case of B12, the “pseudovirus neutralization IC50” value is reported as 2.11 µg/mL.

These binders were tested against SARS-CoV-2 Omicron BA.5 spike pseudovirus in the same assay as above.
Experimental: as §1
B1 was tested, and the “pseudovirus neutralization IC50” value was > 10 µg/mL. In the case of B2, the “pseudovirus neutralization IC50” value is reported as > 10 µg/mL. With B3 the “pseudovirus neutralization IC50” value was 0.218 µg/mL. For B4, the “pseudovirus neutralization IC50” value was 0.00146 µg/mL. With B5 the “pseudovirus neutralization IC50” value was > 10 µg/mL. With B6 the “pseudovirus neutralization IC50” value was 3.08 µg/mL. For B7, the “pseudovirus neutralization IC50” value was 3.86 µg/mL. In the case of B8, the “pseudovirus neutralization IC50” value is reported as 6.85 µg/mL. With B9 the “pseudovirus neutralization IC50” value was 0.0254 µg/mL. In the case of B10, the “pseudovirus neutralization IC50” value is reported as 0.248 µg/mL. B11 was tested, and the “pseudovirus neutralization IC50” value was > 10 µg/mL. For B12, the “pseudovirus neutralization IC50” value was > 10 µg/mL.

What follows are binders tested against SARS-CoV-2 Omicron BQ.1.1 spike pseudovirus in the same assay as above.
Experimental: as §1
For B1, the “pseudovirus neutralization IC50” value was > 10 µg/mL. In the case of B2, the “pseudovirus neutralization IC50” value is reported as > 10 µg/mL. With B3 the “pseudovirus neutralization IC50” value was > 10 µg/mL. In the case of B4, the “pseudovirus neutralization IC50” value is reported as > 10 µg/mL. B5 was tested, and the “pseudovirus neutralization IC50” value was > 10 µg/mL. In the case of B6, the “pseudovirus neutralization IC50” value is reported as 4.53 µg/mL. B7 was tested, and the “pseudovirus neutralization IC50” value was 4.49 µg/mL. With B8 the “pseudovirus neutralization IC50” value was 7.79 µg/mL. In the case of B9, the “pseudovirus neutralization IC50” value is reported as > 10 µg/mL. For B10, the “pseudovirus neutralization IC50” value was 0.671 µg/mL. B11 was tested, and the “pseudovirus neutralization IC50” value was > 10 µg/mL. In the case of B12, the “pseudovirus neutralization IC50” value is reported as > 10 µg/mL.

The binders below were run against SARS-CoV-2 Omicron XBB spike pseudovirus in the same assay as above.
Experimental: as §1
B1 was tested, and the “pseudovirus neutralization IC50” value was > 10 µg/mL. With B2 the “pseudovirus neutralization IC50” value was > 10 µg/mL. For B3, the “pseudovirus neutralization IC50” value was > 10 µg/mL. B4 was tested, and the “pseudovirus neutralization IC50” value was > 10 µg/mL. For B5, the “pseudovirus neutralization IC50” value was > 10 µg/mL. For B6, the “pseudovirus neutralization IC50” value was 3.68 µg/mL. For B7, the “pseudovirus neutralization IC50” value was 4.13 µg/mL. B8 was tested, and the “pseudovirus neutralization IC50” value was 9.1 µg/mL. With B9 the “pseudovirus neutralization IC50” value was > 10 µg/mL. B10 was tested, and the “pseudovirus neutralization IC50” value was 2.23 µg/mL. With B11 the “pseudovirus neutralization IC50” value was > 10 µg/mL. With B12 the “pseudovirus neutralization IC50” value was > 10 µg/mL.

These binders were tested against SARS-CoV-2 early D614G spike pseudovirus in the same assay as above.
Experimental: as §1
For B1, the “pseudovirus neutralization IC50” value was 0.432 µg/mL. With B2 the “pseudovirus neutralization IC50” value was > 10 µg/mL. In the case of B3, the “pseudovirus neutralization IC50” value is reported as 0.0535 µg/mL. With B4 the “pseudovirus neutralization IC50” value was 0.00163 µg/mL. B5 was tested, and the “pseudovirus neutralization IC50” value was > 10 µg/mL. In the case of B6, the “pseudovirus neutralization IC50” value is reported as 1.55 µg/mL. In the case of B7, the “pseudovirus neutralization IC50” value is reported as 2.69 µg/mL. For B8, the “pseudovirus neutralization IC50” value was 5.29 µg/mL. B9 was tested, and the “pseudovirus neutralization IC50” value was 0.182 µg/mL. For B10, the “pseudovirus neutralization IC50” value was 0.00973 µg/mL. B11 was tested, and the “pseudovirus neutralization IC50” value was 0.0059 µg/mL. In the case of B12, the “pseudovirus neutralization IC50” value is reported as 0.00889 µg/mL.
